# Human monoclonal antibodies against the spike receptor-binding domain (heavy:light variable regions). IC50 against pseudoviruses bearing the spike of naturally observed variants; lower = stronger; >10 µg/ml means not reached at the top dose. No active / inactive call. The stated detection limit is 0.0005 µg/ml; values near or below 0.001 µg/ml lie at the floor of the assay.
# B1: BD56-1647 (protein)
# chain 1: QVQLVQSGAEVKKPGASVKLSCKASGYSFTNYYIHWVRQAPGQGLEWMGIINPGGGSTTYAQRFRGRVIMTGDTSTSTVYMELSSLRSDDTAVYYCARSAHGIPSARAWFDPWGQGALVTVSS
# chain 2: DIQMTQSPSTLSASVGDRVTITCRASQSISNWLAWYQHKPGKAPKVLIYEASSLESGVPPRFSGSGSGTEFTLTISSLQPDDFATYYCQQYSAYLYTFGQGTKLEIK
# B2: BD56-1655 (protein)
# chain 1: EVQLVESGGGLVQPGRSLRLSCAASGFTFNDYAMHWVRQAPGKGLEWVSGISWNSGSIGYADSVKGRFTISRDDAKNSLYLQMNSLRAEDTALYYCAKCLTVTTFLFGAFDIWGQGTMVTVSS
# chain 2: EIVLTQSPATLSLSPGERANLSCRSSQSVSNSLAWYQQKPGQAPRLLIYDASNRATGIPARFSGSGSGTDFTLTISSLEPEDFAVYYCQQRSNWPPGLTFGGGTKVEIK
# B3: BD56-1658 (protein)
# chain 1: QVQLVQSGAEVKKPGSSVKVSCKASGGTFSSYPITWVRQAPGQGLEWMGQIIPILGIANYAQRFQGRVTITADKSTSTANMELSSLRSEDTAIYYCARARGYSSSGSAYYFDFWGQGTLVTVSS
# chain 2: QSVLTQPPSVSGAPGQRVTISCTGSSSNIGAGYDVHWYQQLPGTAPKLLIYANNNRPSGVPDRFSGSKSGTSASLAITGLQAEDESDYYCQSYDSSLSGSVFGGGTKLTVL
# B4: BD56-1672 (protein)
# chain 1: QITLKESGPALVKPTQTLTLTCTFSGFSLSTSGVAVGWVRQPPGKALEWLALIYWDDDKRYRPSLKSRLTITKDTSKNQVVLRMTYMDPVDTATYFCAHGRDLPYAEYFQDWGQGTLVTVSP
# chain 2: SYELTQPPSVSVSPGQTARITCSGDAFPNLYAYWYQQKPGQAPVVVIYKDTERPSGIPERFSGSSSGTTVTLTISGVQAEDEADYYCQSGDSSGRVFGGGTKLTVL
# B5: BD56-1673 (protein)
# chain 1: QVQLVESGGGGVVQPGRSQRLSCAASGFTFSSHAMHWVRQAPGKGLEWVAIISYDGSSKHYADSVKGRFTISRDNSKYTLYLHMNSLRPEDTAVYYCVRDAGYCSASRCQTQDYFDYWGQGTQVTVSS
# chain 2: SYVLTQPPSVSVAPGKTARITCGGSEIGSKGVHWYQQKPGQAPVLVIYYDNDRPSGIPERFSGSNSGNTATLTISRVEGGDEADYYCQVWDSSSDHHWVFGRGTKLTVL
# B6: BD56-1674 (protein)
# chain 1: QVQLVESGGGVVQPGRSQRLSCAASGFSFSTYAMYWVRQAPGKGLEWVAFISYDGSDKNYADSVKGRFTISRDNTKNTLYLQMNSLRGEDTAVYYCAREFTNIWYGDFWGQGSLVTVSS
# chain 2: DIQMTQSPSTLSASVGDRVTITCRASQSISTWLAWYQQKPGKAPKLLIYKASSLQSGVPSRFSGSGSGTDFTLTISSLQPDDFASYYCQQYHGAVSWTFGQGTKVEIK
# B7: BD56-1675 (protein)
# chain 1: QVQLVQSGAEVKTPGSSVKVSCKASGGTFSSYSVSWVRQAPGQGLEWMAKIIPMLDIADSAQRFQGRVTLTADKSTSTAYMELSSLRSEDTAVYYCAREVGYSGYGSNWYFDVWGRGTLVTVSS
# chain 2: QSVLTQPPSVSGAPGQRVTISCTGTNSNIGAGYDVHWYQQLPGTAPKLLIYGNINRPSGVPDRFSGSKSDTSASLAITGLQAEDEADYYCQSYDSSLTIFGGGTKLTVL
# B8: BD56-1679 (protein)
# chain 1: QVQLVESGGGVVQPGRSLRLSCAASGFTFSSYAIHWVRQAPGKGLEWVAVISNDGSNKYYADSVKGRFTISRDNSKNMSEMQMNSLRTEDTAVYYCARGKILESFPLTDYYYYYGMDVWGQGTTVTVSS
# chain 2: AIQLTQSPSSLSASVGDRLTITCRASQGFGSALAWYQQKAGKAPRLLIYDASTLESGVPSRFSGSGSGTDFTLTISSLQPEDFATYYCQQFTHYPLTFGGGTKLEIK
# B9: BD56-1681 (protein)
# chain 1: EVQLVETGGGLVQPGGSLRFSCTASGFSFSTYDMHWVRQPTGKGLEWVSAIGTAGDTYYAASVKGRFTISRENAKNSLYLQMNSLRPGDTAVYYCARGGSATYLTAGYFDIWGRGTLVTVSS
# chain 2: EIVMTQSPATLSVSPGERATLSCRASQSVRSNLAWYQQKPGQAPRLLIYGASARATGIPARFSGSGSGTEFTLTISSLQSEDSAVYYCQQYHVWPPETLGQGTKVEIK
# B10: BD56-1684 (protein)
# chain 1: EVQLVESGGGLVQPGGSLRLSCAASDFIVSSNYMSWVRQAPGKGLEWVSVIYPGGSTFYADSVKGRFTISRHNSKNTLYLQMNSLRAEDTAVYYCARDYGDFYFDNWGQGTLVTVSS
# chain 2: EIVLTQSPGTLSLSPGERATLSCRASQSISTTYLAWYQQKPGQAPRLLIYDVSSRATGIPDRFSGSGSGTDFTLTISGLEPEDFAVYYCQQYGSSPRTFGPGTKVEIK
# B11: BD56-1685 (protein)
# chain 1: QVQLVQSGAEVKKPGSSVKVSCKASGVTSSTYAIIWVRQAPGQGLEWMGRIIPLLGIATYAQKFQGRVAITADESTSTAYMELSSLRSDDTAVYYCVCGDYGSSWFFDLWGRGTLVTVSS
# chain 2: DIVMTQTPLSLSVTPGQPASISCKSSQSLLHTDGKTYLYWYLQKPGQSPQLLIYQVSSRFSGVPDRFSGSGSGTDFTLKISRVEAEDVGVYYCMQGIHLPWTFGQGTKVDIK
# B12: BD56-1686 (protein)
# chain 1: EVQLVESGGGLVQPGGSLRLSCAASGFTFSNYDMHWVRQVTGKGLEWVSGIGTTGDTYYPGSVKGRFTISRENAKNSLYLQMDSLRAGDTAVYYCARVSYYYDTSGYYYTYWYFDLWGRGTLVTVSS
# chain 2: DIQMTPSPSSLSASLGDRVTITCRASQNIGSYLNWYQQKPGKAPKLLIYAAFSLQSGVPSRFSGSRFGTDFTLTISSLQPEDFATYYCQQSYSAPPWTFGQGTKVEIK
# Molecular target: SARS-CoV-2 Omicron BA.1 spike pseudovirus
# Assay: pseudovirus neutralization IC50; higher = weaker neutralization
# Procedure: (§1)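 Single-round VSV luciferase pseudovirus mixed with antibody dilutions for 1 h and put on Huh-7 cells for about a day; IC50 from the dose curve.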
row,Binder,pseudovirus neutralization IC50
1,B1,> 10 µg/mL
2,B2,> 10 µg/mL
3,B3,0.0507 µg/mL
4,B4,> 10 µg/mL
5,B5,5.77 µg/mL
6,B6,> 10 µg/mL
7,B7,0.0671 µg/mL
8,B8,0.00481 µg/mL
9,B9,> 10 µg/mL
10,B10,0.072 µg/mL
11,B11,> 10 µg/mL
12,B12,> 10 µg/mL

# Molecular target: SARS-CoV-2 Omicron BA.2 spike pseudovirus
# Assay: as above
# Procedure: as §1
row,Binder,pseudovirus neutralization IC50
1,B1,> 10 µg/mL
2,B2,> 10 µg/mL
3,B3,0.0344 µg/mL
4,B4,8.18 µg/mL
5,B5,8.26 µg/mL
6,B6,> 10 µg/mL
7,B7,0.034 µg/mL
8,B8,0.00314 µg/mL
9,B9,> 10 µg/mL
10,B10,0.0851 µg/mL
11,B11,> 10 µg/mL
12,B12,> 10 µg/mL

# Molecular target: SARS-CoV-2 Omicron BA.2.75 spike pseudovirus
# Assay: as above
# Procedure: as §1
row,Binder,pseudovirus neutralization IC50
1,B1,> 10 µg/mL
2,B2,> 10 µg/mL
3,B3,0.0221 µg/mL
4,B4,8.75 µg/mL
5,B5,5.15 µg/mL
6,B6,> 10 µg/mL
7,B7,0.039 µg/mL
8,B8,0.0536 µg/mL
9,B9,> 10 µg/mL
10,B10,> 10 µg/mL
11,B11,> 10 µg/mL
12,B12,> 10 µg/mL

# Molecular target: SARS-CoV-2 Omicron BA.5 spike pseudovirus
# Assay: as above
# Procedure: as §1
row,Binder,pseudovirus neutralization IC50
1,B1,> 10 µg/mL
2,B2,> 10 µg/mL
3,B3,1.53 µg/mL
4,B4,> 10 µg/mL
5,B5,8.44 µg/mL
6,B6,> 10 µg/mL
7,B7,0.52 µg/mL
8,B8,> 10 µg/mL
9,B9,> 10 µg/mL
10,B10,0.275 µg/mL
11,B11,> 10 µg/mL
12,B12,> 10 µg/mL

# Molecular target: SARS-CoV-2 Omicron BQ.1.1 spike pseudovirus
# Assay: as above
# Procedure: as §1
row,Binder,pseudovirus neutralization IC50
1,B1,> 10 µg/mL
2,B2,> 10 µg/mL
3,B3,3.75 µg/mL
4,B4,> 10 µg/mL
5,B5,6.41 µg/mL
6,B6,> 10 µg/mL
7,B7,2.63 µg/mL
8,B8,> 10 µg/mL
9,B9,> 10 µg/mL
10,B10,> 10 µg/mL
11,B11,> 10 µg/mL
12,B12,> 10 µg/mL

# Molecular target: SARS-CoV-2 Omicron XBB spike pseudovirus
# Assay: as above
# Procedure: as §1
row,Binder,pseudovirus neutralization IC50
1,B1,> 10 µg/mL
2,B2,> 10 µg/mL
3,B3,2.15 µg/mL
4,B4,> 10 µg/mL
5,B5,5.67 µg/mL
6,B6,> 10 µg/mL
7,B7,1.99 µg/mL
8,B8,> 10 µg/mL
9,B9,> 10 µg/mL
10,B10,> 10 µg/mL
11,B11,> 10 µg/mL
12,B12,> 10 µg/mL

# Molecular target: SARS-CoV-2 early D614G spike pseudovirus
# Assay: as above
# Procedure: as §1
row,Binder,pseudovirus neutralization IC50
1,B1,> 10 µg/mL
2,B2,> 10 µg/mL
3,B3,0.373 µg/mL
4,B4,4.95 µg/mL
5,B5,6.66 µg/mL
6,B6,> 10 µg/mL
7,B7,0.203 µg/mL
8,B8,0.0666 µg/mL
9,B9,> 10 µg/mL
10,B10,0.0116 µg/mL
11,B11,> 10 µg/mL
12,B12,> 10 µg/mL
